Results of unrelated studies side by side (data: NIAID ChemDB).

Common to all: toxicity to cultured cells; cell line: MT-4; read by: MTT; read-out: CC50

CCn: concentration that lowers growth or viability of the cells by n%. Rows are shuffled and stem from different studies.

structure	result
CNc1nc(Nc2ccc(C#N)cc2)nc(Oc2ccc3ccccc3c2Br)c1C	178 µM
CCOC(=O)CNc1nc(NC(=O)Nc2ccc(OCC)cc2)nc(Oc2cc(=O)oc3ccccc23)n1	>125 µg/mL
Cc1cc(C)cc(S(=O)(=O)c2c(C(=O)N[C@H]3CCN(CC(N)=O)C3)[nH]c3ccc(Cl)cc23)c1	28.07 µM
CC(C)c1c(Cl)nc(Nc2ccc(C#N)cc2)nc1Oc1ccc2cc(C#N)ccc2c1	284 µM
CCOCn1c(Cc2ccccc2)c(C(C)C)c(=O)[nH]c1=O	>100 µM
CCOC(=O)C(C)N(CC=C(C)C)S(=O)(=O)c1cc(Cl)ccc1N	>200 µM
Cc1ccnc2c1NC(=O)c1cccnc1N2C1CC1	0.82 µg/mL
CC1=C[C@@H]2[C@@H]3C(=O)N(NC(=S)NC4CCCCC4)C(=O)[C@@H]3[C@H]1C[C@@H]2C(C)C	47 µM
Cc1cc(C)cc(S(=O)(=O)c2c(C(=O)N[C@H]3CCN(Cc4ccccc4C#N)C3)[nH]c3ccc(Cl)cc23)c1	>229 µM
COc1ccc(CCNc2nc(NC(=O)Nc3cccc(Cl)c3)nc(Oc3cc(=O)oc4ccccc34)n2)cc1OC	25.23 µg/mL
C/C(=N\Nc1nc(-c2ccc(Cl)cc2)cs1)c1ccc(-c2ccc(Br)cc2)cc1	10.23 µM
COc1ccc(CCNc2nc(NC(=S)Nc3ccccc3)nc(Oc3cc(=O)oc4ccccc34)n2)cc1OC	15.45 µg/mL
C#CCOCn1c(Cc2cc(Cl)cc(Cl)c2)c(CC)c(=O)[nH]c1=O	27 µM
Cc1cc(C)cc(S(=O)(=O)c2c(C(=O)NCCP(=O)(O)O)[nH]c3ccc(Cl)cc23)c1	>265 µM
Clc1ccc(-c2csc(N/N=C/c3ccccn3)n2)cc1	2.19 µM
CCN1C(C)Cn2c(=O)[nH]c3cc(Cl)cc(c32)S1(=O)=O	130 µM
CC1=C(C)[C@]2(C)C(C)[C@@]1(C)[C@@H]1C(=O)N(NC(=O)Nc3ccccc3)C(=O)[C@@H]12	>42 µM
CNc1nc(Nc2ccc(C#N)cc2)nc(Oc2ccc3ccccc3c2)c1C(C)C	25.15 µM
CSc1nsc(-c2ccc(OCc3ccccc3)cc2)c1C#N	>125 µg/mL
Cc1ccc(-c2cc(-c3ccc(Cl)cc3)nc(/N=C3\C(=O)N(CN4CCCCC4)c4ccc(Cl)cc43)n2)cc1	2.6 µM
Cc1cccc(CN2C(C)C(=O)Nc3ccc(Cl)cc3S2(=O)=O)c1	>200 µM
COc1cc(/C=C/c2nc(NC(=S)Nc3ccccc3Cl)c3ccccc3n2)cc(OC)c1OC	3.85 µg/mL
CN1CC(=O)C(=O)C=C1Cn1cnc([N+](=O)[O-])c1Nc1cccc(Cl)c1	5.5 µM
COc1ccccc1NC(=O)Nc1nc(/C=C/c2cc(OC)c(OC)c(OC)c2)nc2ccccc12	2.03 µg/mL
CCOCn1c(Cc2ccccc2)c(C(C)C)c(=O)[nH]c1=O	>100 µM
CCOS(=O)c1nsc(-c2ccc(OCc3ccccc3)cc2)c1C#N	>125 µg/mL
CC(C)[C@]12C=C[C@](C)(CC1)[C@H]1C(=O)N(NC(=O)NC3CCCCC3)C(=O)[C@H]12	72 µM
CCc1c(NC)nc(Nc2ccc(C#N)cc2)nc1Oc1ccc2ccccc2c1Br	65.14 µM
COC(=O)[C@H](C)NP(=O)(OC[C@@H]1C=C[C@H](n2cc(CC(=O)NCCCCCCCCCCNC(=O)C(F)(F)F)c(=O)[nH]c2=O)O1)Oc1ccccc1	>10 µM
CNc1nc(Nc2ccc(C#N)cc2)nc(Oc2ccc3cc(C#N)ccc3c2)c1C(C)C	288 µM
Cc1ccc(-c2cc(-c3ccc(Cl)cc3)nc(/N=C3\C(=O)N(CN4CCOCC4)c4ccccc43)n2)cc1	2.7 µM
Cc1cn([C@H]2C[C@H](N=[N+]=[N-])[C@@H](CO)O2)c(=O)[nH]c1=O	>25 µM
CCOCn1c2c(c(=O)[nH]c1=O)CCC2c1ccccc1	>100 µM
CCc1c(NC)nc(Nc2ccc(C#N)cc2)nc1Oc1ccc2cc(C#N)ccc2c1Br	28.16 µM
Cc1ccc(-c2cc(-c3ccc(Cl)cc3)nc(/N=C3\C(=O)Nc4ccccc43)n2)cc1	9.4 µM
CC(C)COC(=O)c1cccn1S(=O)(=O)c1cc(Cl)ccc1[N+](=O)[O-]	24 µM
COC(=O)[C@H](C)NP(=O)(OC[C@@H]1C=C[C@H](n2cc(CCCNC(=O)C(F)(F)F)c(=O)[nH]c2=O)O1)Oc1ccccc1	800 µM
C=C(CC[C@](C)(O)[C@H]1C(=O)C[C@H]2[C@@H]3C(=O)C=C4[C@@H](O)[C@@H](O)CC[C@]4(C)[C@H]3CC[C@@]21C)C(C)C	18.55 µM
CCOC(=O)CNc1nc(Nc2ccc(OC)cc2)nc(Oc2cc(=O)oc3ccccc23)n1	58.6 µg/mL
C/C(=N\Nc1nc(-c2ccc(C#N)cc2)cs1)c1ccc(-n2ccnc2)cc1	73.95 µM
CC1C(=O)Nc2ccc(Cl)cc2S(=O)(=O)N1CC=Cc1ccccc1	>200 µM
N#Cc1ccc(Nc2nccc(Oc3ccc4cc(C#N)ccc4c3)n2)cc1	>68.8 µM
Cc1ccnc2c1NC(=O)c1cccnc1N2C1CC1	19.65 µg/mL
COc1ccc(Nc2c([N+](=O)[O-])ncn2CC2=CC(=O)C(=O)CN2C)cc1	>250 µM
Cc1cc(C)cc(S(=O)(=O)c2c(C(=O)N[C@H]3CCN(Cc4cccnc4)C3)[nH]c3ccc(Cl)cc23)c1	22.75 µM
O=C(Cc1cn([C@H]2C=C[C@@H](CO)O2)c(=O)[nH]c1=O)NCCCCCCCCCCCCNC(=O)c1c2ccccc2nc2ccccc12	>10 µM
Cc1ccnc2c1NC(=O)c1cccnc1N2C1CC1	>4 µg/mL
Cn1c(N2CCOCC2)c(N=Nc2ccc(-c3ccc(F)cc3)cc2)c(N)nc1=O	88.71 µM
C/C(=N\Nc1nc(-c2ccc(Cl)cc2)cs1)c1ccc2c(c1)OCO2	21.83 µM
COc1cc(O)c(-c2c(C)cc(O)c3c2Cc2cccc(O)c2C3=O)c(O)c1C(C)=O	2.8 µM
Cc1ccc(-c2cc(-c3ccc(Cl)cc3)nc(/N=C3\C(=O)N(CN(C)C)c4ccccc43)n2)cc1	10.1 µM
CN(Cc1ccccc1)C(=O)c1cccn1S(=O)(=O)c1cc(Cl)ccc1N	87 µM
CC1Cn2c(=O)[nH]c3cc(Cl)cc(c32)S(=O)(=O)N1	>200 µM
C=C(C)COCn1c(Cc2cc(Cl)cc(Cl)c2)c(CC)c(=O)[nH]c1=O	25 µM
Nc1nc(NC2CC2)c2ncn([C@H]3C=C[C@@H](CO)C3)c2n1	0.26 µg/mL
Cc1cc(C)cc(S(=O)(=O)c2c(C(=O)N[C@H]3CCN(Cc4ccccc4F)C3)[nH]c3ccc(Cl)cc23)c1	215 µM
Cc1cn(CCCO[C@H]2C=C[C@@H](CO)O2)c(=O)[nH]c1=O	20 µg/mL
COc1ccc(NC(=O)NN2C(=O)[C@@H]3[C@H](C2=O)[C@]2(C)C=C[C@@]3(C(C)C)CC2)cc1	57 µM
COc1ccc(-c2ccc(N=Nc3c(N)nc(=O)n(C)c3-c3ccc(OC)c(OC)c3)cc2)cc1OC	1.63 µM
COc1ccccc1NC(=O)Nc1nc(NCCc2ccc(OC)c(OC)c2)nc(Oc2cc(=O)oc3ccccc23)n1	25.48 µg/mL
CCOC(=O)c1ccc(-c2cc(N)nc(=O)n2C)cc1	75.23 µM
CCOC(=O)CNc1nc(NC(=O)Nc2ccc(Cl)cc2)nc(Oc2cc(=O)oc3ccccc23)n1	>125 µg/mL
Cc1cc(C)cc(S(=O)(=O)c2c(C(=O)NS(=O)(=O)C(F)(F)F)[nH]c3ccc(Cl)cc23)c1	>253 µM
CCOCn1c(Cc2cc(Cl)cc(Cl)c2)c(CC)c(=O)[nH]c1=O	36 µM
CN1CC(=O)C(=O)C=C1Cn1cnc([N+](=O)[O-])c1Sc1ccc(Cl)cc1	3.6 µM
N#Cc1c(SCCCSc2nsc(-c3ccccc3)c2C#N)nsc1-c1ccccc1	>125 µg/mL
NC(=O)c1cccn1S(=O)(=O)c1cc(Cl)ccc1[N+](=O)[O-]	52 µM
CC(C)[C@]12C=C[C@](C)(CC1)[C@H]1C(=O)N(NC(=S)Nc3ccccc3)C(=O)[C@H]12	60 µM
COc1ccc(CCNc2nc(NC(=O)Nc3ccccc3Cl)nc(Oc3cc(=O)oc4ccccc34)n2)cc1OC	51.15 µg/mL
COc1cc(/C=C/c2nc(NC(=O)Nc3cccc(C)c3)c3ccccc3n2)cc(OC)c1OC	0.96 µg/mL
CCOC(=O)CNc1nc(Nc2ccc(Cl)cc2)nc(Oc2cc(=O)oc3ccccc23)n1	45.6 µg/mL
Cc1cc(C)cc(S(=O)(=O)c2c(C(=O)NC3CN(Cc4cccnc4)C3)[nH]c3ccc(Cl)cc23)c1	36.03 µM
CN1CC(=O)C(=O)C=C1Cn1cnc([N+](=O)[O-])c1Nc1cc(Cl)cc(Cl)c1	7.3 µM
Nc1nc2c(ncn2CCC(CO)CO)c(=O)[nH]1	>493 µM
CC(C)COC(=O)c1cccn1S(=O)(=O)c1cc(Cl)ccc1N	>200 µM
CC1=C[C@@H]2[C@@H]3C(=O)N(NC(=S)Nc4ccccc4)C(=O)[C@@H]3[C@H]1C[C@@H]2C(C)C	48 µM
C=CCOCn1c(Cc2cc(Cl)cc(Cl)c2)c(CC)c(=O)[nH]c1=O	23 µM
COC(=O)Cc1cn([C@H]2C=C[C@@H](COP(=O)(N[C@@H](C)C(=O)OC)Oc3ccccc3)O2)c(=O)[nH]c1=O	>100 µM
COc1ccc(-c2cc(N)nc(=O)n2C)cc1OC	14.23 µM
C=C(CC[C@](C)(O)[C@H]1C(=O)C[C@H]2[C@@H]3[C@H](O)C[C@H]4CC(=O)CC[C@]4(C)[C@H]3CC[C@@]21C)C(C)C	11.9 µM
Cn1c(N2CCNCC2)c(N=Nc2ccc(Cl)cc2)c(N)nc1=O	3.03 µM
Cc1cc(C)cc(S(=O)(=O)c2c(C(=O)NS(C)(=O)=O)[nH]c3ccc(Cl)cc23)c1	>283.5 µM
COc1ccc(NC(=S)Nc2nc(NCCc3ccc(OC)c(OC)c3)nc(Oc3cc(=O)oc4ccccc34)n2)cc1	56.45 µg/mL
Cc1cc(C)cc(S(=O)(=O)c2c(C(=O)NC3CN(Cc4ccccc4F)C3)[nH]c3ccc(Cl)cc23)c1	>238 µM
COc1cc(/C=C/c2nc(NC(=S)Nc3cccc(Cl)c3)c3ccccc3n2)cc(OC)c1OC	3.25 µg/mL
CC(C)[C@H](C)CC[C@](C)(O)[C@H]1C(=O)C[C@H]2[C@@H]3C(=O)C=C4C[C@@H](O)CC[C@]4(C)[C@H]3CC[C@@]21C	4.95 µM

10 of the rows above, restated:

| structure | result |
|---|---|
| COc1cc(/C=C/c2nc(NC(=S)Nc3cccc(Cl)c3)c3ccccc3n2)cc(OC)c1OC | 3.25 µg/mL |
| COc1ccc(NC(=S)Nc2nc(NCCc3ccc(OC)c(OC)c3)nc(Oc3cc(=O)oc4ccccc34)n2)cc1 | 56.45 µg/mL |
| CNc1nc(Nc2ccc(C#N)cc2)nc(Oc2ccc3cc(C#N)ccc3c2)c1C(C)C | 288 µM |
| CC(C)COC(=O)c1cccn1S(=O)(=O)c1cc(Cl)ccc1N | >200 µM |
| CNc1nc(Nc2ccc(C#N)cc2)nc(Oc2ccc3ccccc3c2)c1C(C)C | 25.15 µM |
| CC1=C(C)[C@]2(C)C(C)[C@@]1(C)[C@@H]1C(=O)N(NC(=O)Nc3ccccc3)C(=O)[C@@H]12 | >42 µM |
| Cc1cc(C)cc(S(=O)(=O)c2c(C(=O)NC3CN(Cc4ccccc4F)C3)[nH]c3ccc(Cl)cc23)c1 | >238 µM |
| CCOC(=O)CNc1nc(NC(=O)Nc2ccc(Cl)cc2)nc(Oc2cc(=O)oc3ccccc23)n1 | >125 µg/mL |
| COc1cc(/C=C/c2nc(NC(=S)Nc3ccccc3Cl)c3ccccc3n2)cc(OC)c1OC | 3.85 µg/mL |
| Cc1cn(CCCO[C@H]2C=C[C@@H](CO)O2)c(=O)[nH]c1=O | 20 µg/mL |